Broadly, the Kd is the equilibrium constant for the complex coming apart. As usually defined, the stoichiometry N is the number of molecules, sites or subunits per partner or assembly.

The chains behind the UniProt entries cited, without tags or fusion partners. Residues count along the entry.
UniProt Q9BXW4, 8-125: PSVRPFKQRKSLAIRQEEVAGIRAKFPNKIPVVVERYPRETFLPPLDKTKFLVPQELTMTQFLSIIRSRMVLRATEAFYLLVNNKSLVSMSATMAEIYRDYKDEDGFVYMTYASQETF

Holding throughout (test): ITC
Holding throughout (conditions): both partners purified

In assay [1] the target is T1, GABARAPL2 (residues 1-117 of human GABARAPL2) (human, UniProt P60520 1-117).
Assay [2] concerns the target T2, LC3C (residues 8-125 of human LC3C) (human, UniProt Q9BXW4 8-125).
For assay [3], the target named is T3, GABARAP (residues 1-117 of human GABARAP) (human, UniProt O95166 1-117).
Assay [4] concerns the target T4, LC3A (residues 1-121 of human LC3A) (human, UniProt Q9H492 1-121).
For assay [5], the target named is T1, GABARAPL2 (residues 1-117 of human …). The source holds these as a separate data set.
The target of assay [6] is T2, LC3C (residues 8-125 of human LC3C). The source holds these as a separate data set.
The target in assay [7] is T3, GABARAP (residues 1-117 of human …). This is another data set of the same source.
Assay [8] has as its target T4, LC3A (residues 1-121 of human LC3A). The source holds these as a separate data set.

Regarding DVEMESEEESDDDGFVEVD [NSs4 (residues 247-265 of RVFV NSs)], the equilibrium dissociation constant (Kd) is 2200 nM in assay [1], 200 nM in assay [2], 430 nM in assay [3] and 240 nM in assay [4]. Besides, the “stoichiometry N” value in assay [5], in assay [6], in assay [7] and in assay [8] was 1 each time.

The record behind these values is article PMC10986958 (PLOS Pathogens, 2024).
